# Publication PMC8012719 (Frontiers in Pharmacology, 2021)
# Chains of the proteins cited; added tags and fusions are not shown. Residues count along the entry.
# UniProt O92284, 20-524 limits assumed: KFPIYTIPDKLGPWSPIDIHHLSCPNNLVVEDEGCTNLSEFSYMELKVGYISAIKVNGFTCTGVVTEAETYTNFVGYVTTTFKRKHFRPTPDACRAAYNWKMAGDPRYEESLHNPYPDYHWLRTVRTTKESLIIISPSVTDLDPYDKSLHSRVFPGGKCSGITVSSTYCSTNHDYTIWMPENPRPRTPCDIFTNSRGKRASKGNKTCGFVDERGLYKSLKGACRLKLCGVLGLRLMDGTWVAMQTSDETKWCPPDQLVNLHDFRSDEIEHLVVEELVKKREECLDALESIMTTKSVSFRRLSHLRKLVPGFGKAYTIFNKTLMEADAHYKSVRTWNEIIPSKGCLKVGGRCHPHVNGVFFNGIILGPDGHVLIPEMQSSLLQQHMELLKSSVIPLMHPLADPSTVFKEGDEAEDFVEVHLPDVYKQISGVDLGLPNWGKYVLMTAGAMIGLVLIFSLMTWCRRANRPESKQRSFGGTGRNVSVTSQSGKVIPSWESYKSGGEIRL
# Legend:
# CVS glycoprotein G = CVS glycoprotein G (Rabies virus, UniProt O92284); assay type: cell-based; conditions: pH 5
# RABV CVS strain = assay type: cell-based, rabies virus
# [1] = system: pVSV (pseudovirus expressing a vesicular stomatitis virus envelope glycoprotein); assay type: cell-based
# [2] = system: pRABV (pseudovirus enveloped by the RABV glycoprotein G); assay type: cell-based, rabies virus
compound,measurement,setting,value
CC(C)/N=c1\cc2n(-c3ccc(Cl)cc3)c3ccccc3nc-2cc1Nc1ccc(Cl)cc1 [Clofazimine],syncytium formation (G-mediated membrane fusion),CVS glycoprotein G,significantly inhibited syncytium formation
same,SI,RABV CVS strain,over 967
same,EC50pVSV/EC50pRABV,[1],6.3
same,SI pRABV,[2],>120
